Results of unrelated studies side by side (data: NIAID ChemDB).

All rows: whole-cell or culture tests; species: Vaccinia virus; read-out: EC50

ECn: concentration that inhibits the pathogen or its effect by n%.

| SMILES | cells | strain or isolate | result |
|---|---|---|---|
| Nc1nc(=O)n([C@H]2C[C@H](O)[C@@H](CO)O2)cc1/C=C/Cl | PRK |  | >200 µg/mL |
| Cc1cccn2c(C3OCCS3)cnc12 | E6SM |  | >1000 µM |
| CC(=O)OCCOCN1C=CC(=O)N(COCCOC(C)=O)S1(=O)=O | E6SM |  | >400 µg/mL |
| Nc1ncnc2c1ncn2C[C@@H](CO)OCP(=O)(O)O | ESM |  | 0.7 µg/mL |
| CC(=O)OCCOCn1cnc2c(Cl)nc(N)nc21 | PRK |  | 70 µg/mL |
| COc1cc(F)c([C@H]2C[C@H](O)[C@@H](CO)O2)cc1[N+](=O)[O-] | E6SM |  | >400 µg/mL |
| O=c1[nH]c(=O)n([C@@H]2O[C@H](CO)[C@@H](O)[C@@H]2O)cc1-c1cccs1 | HEL |  | >400 µg/mL |
| Nc1ccn(CCCC(O)CF)c(=O)n1 | ESM |  | >400 µg/mL |
| C/C(O)=C1\C(=N)N(COCCO)S(=O)(=O)N=C1N | E6SM |  | >400 µg/mL |
| O=c1[nH]cnc2c1ncn2COCCO | PRK |  | >400 µg/mL |
| O=c1[nH]c(=O)n([C@H]2C[C@H](O)[C@@H](CO)O2)cc1-c1ccc(Cl)s1 | HEL |  | >200 µg/mL |
| CC1(CO)CCC(Cn2nnc3c(N)ncnc32)C1(C)C | E6SM |  | 70 µg/mL |
| CN(C)c1ncnc2c1ncn2COCCO | PRK |  | >400 µg/mL |
| N=C(N)CCNC(=O)c1c[nH]c(NC(=O)c2c[nH]c(NC(=O)c3ccc(CC(=O)Nc4c[nH]c(C(=O)Nc5c[nH]c(C(=O)NCCC(=N)N)c5)c4)cc3)c2)c1 | PRK |  | 10 µg/mL |
| Cc1cccn2c(C3OCCO3)cnc12 | E6SM |  | >1000 µM |
| CC1(CO)CCC(Cn2ccc(=O)[nH]c2=O)C1(C)C | E6SM |  | 400 µg/mL |
| Cc1cc([C@@H]2C[C@H](O)[C@@H](CO)O2)c(F)cc1F | E6SM |  | >400 µg/mL |
| COc1ccc(-c2[nH]c3nc4c(ncn4COCCO)c(=O)n3c2-c2ccc(C(c3ccccc3)c3ccccc3)cc2)cc1 |  |  | >16 µg/mL |
| Cc1cn(C(CF)CCCO)c(=O)[nH]c1=O | ESM |  | >200 µg/mL |
| Nc1ncnc2c1ncn2[C@H]1C[C@@H](CO)[C@H](O)[C@@H]1O | PRK |  | 400 µg/mL |
| CC1(CO)CCC(Cn2cnc3c(=O)[nH]cnc32)C1(C)C | E6SM |  | 300 µg/mL |
| Cc1ccn2c(C(SCCc3ccccc3)SCCc3ccccc3)cnc2c1 | E6SM |  | >1000 µM |
| O=c1[nH]c(=O)n([C@H]2C[C@H](O)[C@@H](CO)O2)cc1-c1cccs1 | HEL |  | >400 µg/mL |
| O=c1[nH]c(=O)n([C@H]2C[C@H](O)[C@@H](COP(=O)([O-])OP(=O)([O-])OC[C@@H]3OC(O)[C@H](O)[C@H](O)[C@H]3O)O2)cc1I | E6SM |  | 0.4 µg/mL |
| O=c1c2ncn(COCCO)c2[nH]c2ncc(CO)n12 |  |  | >3.2 µg/mL |
| O=c1[nH]c(=O)n(COCCO)cc1F | PRK |  | >400 µg/mL |
| CC(=O)OCCOCN1C(=N)/C(=C(\C)O)C(N)=NS1(=O)=O | E6SM |  | >400 µg/mL |
| Nc1nc(=O)n([C@@H]2C=C(CO)[C@@H](O)[C@H]2O)cc1I |  | Copenhagen | 10.8 µg/mL |
| O=c1[nH]c(=O)n([C@H]2C[C@H](O)[C@@H](CO)O2)cc1I | E6SM |  | 0.1 µg/mL |
| COC(=O)Nc1nc2c3c(ccc2[nH]1)[C@@]1(C)CCC[C@@](C)(C(=O)OC)C1CC3 | E6SM |  | >4 µg/mL |
| Nc1nc(=O)n([C@H]2C[C@H](O)[C@@H](CO)O2)cc1/C=C\Cl | PRK |  | >200 µg/mL |
| COC(=O)[C@]1(C)CCC[C@]2(C)c3ccc4nc(-c5ccccc5)c(-c5ccccc5)nc4c3CCC12 | E6SM |  | >4 µg/mL |
| OC[C@H]1O[C@@H](c2cc(C(F)(F)F)c(F)cc2F)C[C@@H]1O | E6SM |  | >400 µg/mL |
| O=c1[nH]c(=O)n([C@H]2C[C@@H](CO)[C@H](O)C2)cc1I | PRK |  | ≥400 µg/mL |
| Cc1cc([C@H]2C[C@H](O)[C@@H](CO)O2)c(F)cc1F | E6SM |  | >400 µg/mL |
| O=P(O)(O)OC[C@H]1OC(O)[C@@H](O)[C@@H](O)[C@@H]1O | E6SM |  | >400 µg/mL |
| Nc1nc(=O)n([C@@H]2C=C(CO)[C@@H](O)[C@H]2O)cc1Br |  | Copenhagen | >100 µg/mL |
| Nc1ncnc2c1ncn2[C@@H]1C=C(CF)[C@H](O)[C@H]1O | PRK |  | 2 µg/mL |
| CC(=O)OCCOCn1cnc2c(Cl)ncnc21 | PRK |  | 20 µg/mL |
| Nc1ncnc2c1ncn2[C@@H]1C=C(CO)[C@@H](O)[C@H]1O | ESM |  | 0.2 µg/mL |
| Cc1[nH]c2nc3c(ncn3COCCO[Si](C)(C)C(C)(C)C)c(=O)n2c1C(c1ccccc1)(c1ccccc1)c1ccccc1 |  |  | 2 µg/mL |
| N#CC1=CN(COCCO)S(=O)(=O)N=C1N | E6SM |  | >400 µg/mL |
| Cc1cn([C@@H]2OC[C@H](CO)[C@H]2O)c(=O)[nH]c1=O | E6SM |  | >400 µg/mL |
| Nc1ncnc2c1ncn2[C@@H]1O[C@H](COP(=O)(O)O[C@@H]2[C@H](O)[C@@H](COP(=O)(O)O[C@@H]3[C@H](O)[C@@H](COP(=O)(O)OP(=O)(O)OC[C@@H]4OC(O)[C@H](O)[C@H](O)[C@H]4O)O[C@H]3n3cnc4c(N)ncnc43)O[C@H]2n2cnc3c(N)ncnc32)[C@@H](O)[C@H]1O | E6SM |  | 70 µg/mL |
| COC(=O)[C@]1(C)CCC[C@]2(C)c3cc(Br)c4nc(C(F)(F)F)[nH]c4c3CCC12 | E6SM |  | >4 µg/mL |
| O=c1c2ncn(COC(CO)CO)c2nc2[nH]c(-c3ccccc3)cn12 |  |  | >90 µg/mL |
| Nc1nc2c(ncn2[C@H]2OC[C@@H](CO)C2O)c(=O)[nH]1 | E6SM |  | 240 µg/mL |
| Cc1ccn2c(C3OCCS3)cnc2c1 | E6SM |  | >1000 µM |
| O=c1[nH]c(=O)n(C2CC(CO)[C@H](O)C2)cc1I | PRK |  | 150 µg/mL |
| Cc1cn([C@@H]2OC[C@H](CO)[C@H]2N=[N+]=[N-])c(=O)[nH]c1=O | E6SM |  | >80 µg/mL |
| N=C(N)CCNC(=O)c1c[nH]c(NC(=O)c2c[nH]c(NC(=O)/C=C/C(=O)Nc3c[nH]c(C(=O)Nc4c[nH]c(C(=O)NCCC(=N)N)c4)c3)c2)c1 | PRK |  | 2 µg/mL |
| Cc1cc([C@@H]2C[C@H](O)[C@@H](CO)O2)c(F)cc1Cl | E6SM |  | >400 µg/mL |
| C=CC1=C[C@@H](n2cnc3c(N)ncnc32)[C@H](O)[C@@H]1O | PRK |  | 20 µg/mL |
| N=C(N)CCNC(=O)c1c[nH]c(NC(=O)c2c[nH]c(NC(=O)CCCCCCCC(=O)Nc3c[nH]c(C(=O)Nc4c[nH]c(C(=O)NCCC(=N)N)c4)c3)c2)c1 | PRK |  | 0.2 µg/mL |
| CC(=O)OCCOCN1C=C(C#N)C(N)=NS1(=O)=O | E6SM |  | >400 µg/mL |

Neighbouring rows are from separate reports. An empty or dashed field is not shown.